Measured values from several laboratories, pooled; numbers as filed in NIAID ChemDB.

Common to all: cytotoxicity tests; cell line: VERO; measure: CC50

Conditions beyond the fields shown may differ between rows. An empty or dashed field is not shown. CCn is the concentration with n% toxicity to the cells.

smiles | method | result
CSc1ncnc2c([C@@H]3O[C@H](COC(C)=O)[C@@H](OC(C)=O)[C@H]3OC(C)=O)[nH]nc12 |  | <1 µg/mL
Nc1ccn([C@H]2S[C@@H](CO)C=C2F)c(=O)n1 |  | >100 µM
O=C(NCc1ccc(Cl)cc1)c1c[nH]c2ccc(C#CCO)cc2c1=O |  | 49 µM
Nc1nc2c(ncn2COC(CO)COP(=O)(O)O)c(=O)[nH]1 |  | 700 µM
OC(c1ccccc1)c1nc2ccccc2s1 |  | >500 µg/mL
Clc1ccc(/C(Cn2ccnc2)=N\OCc2ccc(-c3ccccc3)cc2)cc1 |  | 6 µg/mL
NC(=O)N=Nc1c(O)n(CN2CCN(c3cc4c(cc3F)c(=O)c(C(=O)O)cn4C3CC3)CC2)c2ccc(Br)cc12 |  | >0.1 µM
Clc1ccc(/C(Cn2ccnc2)=N\OCc2ccccc2)cc1 |  | 2 µg/mL
CCOC(=O)c1ccc(OCCC2CCN(c3ccc(C)nn3)CC2)cc1 | MTT | 7 µg/mL
COc1ccc(-c2c(O)ccn([C@@H]3O[C@H](COC(C)=O)[C@@H](OC(C)=O)[C@H]3OC(C)=O)c2=O)cc1 | neutral red | >400 µM
O=C1C(=O)N(CN2CCN(c3cc4c(cc3F)c(=O)c(C(=O)O)cn4C3CC3)CC2)c2ccc(Cl)cc21 |  | >0.019 µM
CCCCS(=O)(=O)Nc1ccc2[nH]c(C(=O)OC(C)(C)C)c(C)c2c1 | resazurin | 68 µM
O=c1c(-c2ccccc2)c(O)ccn1[C@@H]1O[C@H](CO)[C@@H](O)[C@H]1O | neutral red | >400 µM
Cc1cn([C@@H]2O[C@@H](CO)[C@H](O[Si](C)(C)C(C)(C)C)C2(F)F)c(=O)[nH]c1=O |  | >100 µM
c1ccc(/C(Cn2ccnc2)=N\OCc2ccc(-c3ccccc3)cc2)cc1 |  | 6 µg/mL
Nc1ccn([C@H]2O[C@@H](CO)C=C2F)c(=O)n1 |  | >100 µM
Nc1nc2c(ncn2COC(COP(=O)(O)O)COP(=O)(O)O)c(=O)[nH]1 |  | 800 µM
CC[C@@H](C(C)C)[C@@H](O)[C@H](O)[C@@H](C)[C@H]1CC[C@H]2[C@@H]3CC(=O)[C@@]4(O)C[C@H](O)[C@H](O)C[C@]4(C)[C@H]3CC[C@]12C | MTT | 40 µM
NC(=O)N=Nc1c(O)n(CN2CCN(c3cc4c(cc3F)c(=O)c(C(=O)O)cn4C3CC3)CC2)c2ccc(Cl)cc12 |  | >0.017 µM
Cc1c(C(=O)NCc2ccc(C(F)(F)F)cc2)[n+](=O)c2cc(F)ccc2n1[O-] | ATP / luminescence | >40 µg/mL
C=C1CCC2C(C)(COC(=O)CCCCCCCCCCCCCCC)C(OC(=O)CCCCCCCCCCCCCCC)CCC2(C)C1C/C=C1\C(=O)OCC1OC(=O)CCCCCCCCCCCCCCC | crystal violet | 122.1 µM
CCCCS(=O)(=O)Nc1ccc2[nH]c(C(=O)N[C@H](C)c3ccccc3)c(C)c2c1 | resazurin | 30.2 µM
O=C(NCc1ccccc1)c1c(-c2ccccc2)[n+](=O)c2ccc(Cl)cc2n1[O-] | ATP / luminescence | >40 µg/mL
CCOC(=O)Sc1nsc(-c2ccccc2)c1C#N | MTT | 5.8 µg/mL
CCCCS(=O)(=O)Nc1ccc2[nH]c(C(=O)NC3CCOCC3)c(C)c2c1 | resazurin | 64 µM
N#Cc1c(SSc2nsc(-c3ccccc3)c2C#N)nsc1-c1ccccc1 | MTT | 8.69 µg/mL
CCCCCCCCCC1N=C(N)N2CCCC2=C1C(=O)OCCCCN=C(N)N |  | 0.7 µM
Cc1c(CN2CCSCC2)cc(-c2ccccc2)n1-c1ccc(F)cc1 |  | 8 µg/mL
CSc1nsc(-c2ccccc2)c1C#N | MTT | 4.64 µg/mL
CCCCS(=O)(=O)Nc1ccc2[nH]c(C(=O)N3CCCCC3)c(C)c2c1 | resazurin | >130 µM
Oc1ccccc1Cc1nc2ccccc2s1 |  | 62 µg/mL
Cc1c(C(=O)NCc2ccc3c(c2)OCO3)[n+](=O)c2cc(Cl)ccc2n1[O-] | ATP / luminescence | >40 µg/mL
CSc1ncnc2c1cnn2[C@@H]1O[C@H](COC(C)=O)[C@@H](OC(C)=O)[C@H]1OC(C)=O |  | 320 µg/mL
Cc1ccc2c(c1)C(=O)C(=O)N2CN1CCN(c2cc3c(cc2F)c(=O)c(C(=O)O)cn3C2CC2)CC1 |  | >0.02 µM
Nc1ccn([C@@H]2S[C@H](CO)C=C2F)c(=O)n1 |  | >100 µM
COc1cccc(Cn2cnc3c(-c4ccco4)ncnc32)c1 |  | >62.5 µg/mL
CC(C)(C)[Si](C)(C)O[C@H]1[C@H](CO)O[C@H](n2ccc(N)nc2=O)C1(F)F |  | >100 µM
O=C(c1ccccc1)c1nc2ccccc2o1 |  | 125 µg/mL
Cc1ccc2c(c1)c(N=NC(N)=S)c(O)n2CN1CCN(c2cc3c(cc2F)c(=O)c(C(=O)O)cn3C2CC2)CC1 |  | >0.011 µM
CCOC(=O)c1[nH]c2ccc(N)cc2c1C | resazurin | 110 µM
Cn1c(NNc2nc(Nc3cccc([N+](=O)[O-])c3)nc(Nc3cccc([N+](=O)[O-])c3)n2)nc(-c2ccc(Cl)cc2)c(C#N)c1=O |  | 9 µg/mL
Cc1c(CN2CCSCC2)cc(-c2ccc(F)cc2)n1-c1ccc(Cl)cc1 |  | 8 µg/mL
COc1cccc(Nc2nc(NNc3nc(-c4ccccc4)c(C#N)c(=O)n3C)nc(Nc3cccc(OC)c3)n2)c1 |  | 32 µg/mL
CCOC(=O)c1[nH]c2ccc(NC(=O)OC(C)(C)C)cc2c1C | resazurin | >160 µM
Clc1ccc(/C(Cn2ccnc2)=N/OCc2cccc3ccccc23)cc1 |  | 3 µg/mL
C=C1CCC2C3(C)COC(C)(C)OC3CCC2(C)C1C/C=C1\C(=O)OCC1OC(C)=O | crystal violet | 5.9 µM
O=C(NCc1ccccc1)c1c(-c2ccccc2)[n+](=O)c2ccc(F)cc2n1[O-] | ATP / luminescence | 17.86 µg/mL
CC[C@@H](C(C)C)[C@@H](O)[C@H](O)[C@@H](C)[C@H]1CC[C@H]2[C@@H]3CC(=O)[C@H]4C[C@@H](OC(C)=O)CC[C@]4(C)[C@H]3CC[C@]12C | MTT | 238 µM
CCCCS(=O)(=O)Nc1ccc2[nH]c(C(=O)NCc3ccccc3C)c(C)c2c1 | resazurin | >120 µM
Clc1ccc(/C(Cn2ccnc2)=N/OC/C=C/c2ccccc2)cc1 |  | 3 µg/mL
CCCCS(=O)(=O)Nc1ccc2[nH]c(C(=O)Nc3cccc4ccccc34)c(C)c2c1 | resazurin | 110 µM
Cn1c(NNc2nc(Nc3ccc(F)c(Cl)c3)nc(Nc3ccc(F)c(Cl)c3)n2)nc(-c2ccc(Cl)cc2)c(C#N)c1=O |  | 41 µg/mL
c1ccc(/C(Cn2ccnc2)=N/OCc2ccc(-c3ccccc3)cc2)cc1 |  | 3 µg/mL
O=C(NC12CC3CC(CC(C3)C1)C2)c1cc(=O)c2c(Br)cccc2[nH]1 | visual reading / absorbance | 39.87 µM
Nc1nc2c(ncn2[C@@H]2C=C[C@H](CO)C2)c(=O)[nH]1 |  | >100 µM
CC(=O)O[C@]1(C)/C=C/C[C@@H](C)/C=C/[C@@]2(C)CC[C@@H](C(C)(C)O)[C@@H]2[C@@H](O)C1 |  | 189 µM
Clc1ccc(/C(Cn2ccnc2)=N\OCc2ccccc2)c(Cl)c1 |  | 32 µg/mL
Nc1ccn([C@H]2O[C@@H](CO)C=C2F)c(=O)n1 |  | >100 µM
Fc1cccc2nc3c(cnc4c3cnn4-c3ccccc3)c(Cl)c12 | MTT | 600 µM
O=c1nc2c(ncn2Cc2ccccc2)c(C#Cc2ccccc2)n1Cc1ccccc1 |  | <0.2 µg/mL
O=C(NCc1ccc(Cl)cc1)c1c[nH]c2c(F)cccc2c1=O |  | >50 µM
Nc1ncnc2c1ncn2[C@H]1O[C@@H](CO)[C@H](O)C1(F)F |  | >100 µM
Cc1c(C(=O)NCc2ccc(Br)cc2)[n+](=O)c2cc(Cl)c(Cl)cc2n1[O-] | ATP / luminescence | >40 µg/mL
NC(=S)N=Nc1c(O)n(CN2CCN(c3cc4c(cc3F)c(=O)c(C(=O)O)cn4C3CC3)CC2)c2ccccc12 |  | >0.111 µM
OC(c1ccccc1)c1nc2ccccc2o1 |  | 125 µg/mL
O=C(NCc1ccc(Cl)cc1)c1c[nH]c2c(F)cc(CCCO)cc2c1=O |  | >50 µM
C=C1CCC2C(C)(COC(=O)CCCCCCCCCCCCCCC)C(OC(=O)CCCCCCCCCCCCCCC)CCC2(C)C1C/C=C1/CCOC1=O | crystal violet | 73.9 µM
c1ccc(/C(Cn2ccnc2)=N/OCc2cccc3ccccc23)cc1 |  | 6 µg/mL
O=C(NCc1ccccc1)c1c(-c2ccccc2)[n+](=O)c2ccccc2n1[O-] | ATP / luminescence | >40 µg/mL
COc1ccc(CCNC(=O)c2c(C)n([O-])c3ccc(C(F)(F)F)cc3[n+]2=O)cc1 |  | >100 µg/mL

7 of the rows above, restated:

{"smiles": "Nc1nc2c(ncn2COC(COP(=O)(O)O)COP(=O)(O)O)c(=O)[nH]1", "result": "800 µM"}
{"smiles": "COc1cccc(Nc2nc(NNc3nc(-c4ccccc4)c(C#N)c(=O)n3C)nc(Nc3cccc(OC)c3)n2)c1", "result": "32 µg/mL"}
{"smiles": "Fc1cccc2nc3c(cnc4c3cnn4-c3ccccc3)c(Cl)c12", "method": "MTT", "result": "600 µM"}
{"smiles": "CCCCS(=O)(=O)Nc1ccc2[nH]c(C(=O)NC3CCOCC3)c(C)c2c1", "method": "resazurin", "result": "64 µM"}
{"smiles": "Oc1ccccc1Cc1nc2ccccc2s1", "result": "62 µg/mL"}
{"smiles": "NC(=S)N=Nc1c(O)n(CN2CCN(c3cc4c(cc3F)c(=O)c(C(=O)O)cn4C3CC3)CC2)c2ccccc12", "result": ">0.111 µM"}
{"smiles": "Cc1cn([C@@H]2O[C@@H](CO)[C@H](O[Si](C)(C)C(C)(C)C)C2(F)F)c(=O)[nH]c1=O", "result": ">100 µM"}